Among the data in PMC3166015 (Emerging Infectious Diseases, 2011) are IC50 values, retold here.

The experiment deals with NA activity of oseltamivir-resistant (OR, H275Y) pandemic (H1N1) 2009 virus (Influenza A virus, UniProt C3W5S3, H275Y). Type of experiment: biochemical. The settings on record: read-out: IC50, Mean ± SD.

Consider `CC(=O)N[C@H]1[C@H]([C@H](O)[C@H](O)CO)OC(C(=O)O)=C[C@@H]1N=C(N)N` [Zanamivir, zanamivir], for which the IC50 stood at 0.36 nM.

What is called IC50 is the concentration that gives 50% inhibition.
